Anti-infective test results gathered from many reports (values: NIAID ChemDB through PubChem).

Shared fields: host cell toxicity; cell line: Huh7; measure: CC50

An empty or dashed field is not shown. Conditions beyond the fields shown may differ between rows. a–b is a range or a potency band. CCn: concentration that lowers growth or viability of the cells by n%.

structure	method	value
CN(C)[C@H](Cc1ccccc1)C(=O)N1CCC[C@H]1C(=O)Nc1ccc(C#Cc2ccc(NC(=O)[C@@H]3CCCN3C(=O)[C@@H](Cc3ccccc3)N(C)C)cc2)cc1	resazurin	>10 µM
N#Cc1c(Nc2ccc(Cl)cc2Cl)s[nH]c1=O		>50 µM
CC(C)C(=O)N[C@@H](C(=O)N1CCC[C@H]1C(=O)Nc1ccc(C#Cc2ccc(NC(=O)[C@@H]3CCCN3C(=O)[C@H](NC(=O)C(C)C)c3ccccc3)cc2)cc1)c1ccccc1	resazurin	>10 µM
NS(=O)(=O)c1ccc(CNc2nc(NCC(F)(F)F)c3nc(-c4ccc(F)cc4)cnc3n2)cc1	ATP	>20 µM
CCOc1nc(N)nc2ccc(-c3ccc(NC(=O)[C@@H](N)CO)cc3)nc12		>20 µM
N#Cc1c(Nc2ccc(Cl)c(Cl)c2)s[nH]c1=O		>50 µM
Cc1ccc(Sc2ccccc2)c(Nc2ncnc3nc(C4CCC4)ccc23)c1	MTT	3.6 µM
COc1ccc(-c2cnc3nc(N)nc(N4CCN(C(C)c5ccccc5)CC4)c3n2)cc1OC	ATP	<10 µM
CCCc1ccc2c(Nc3cc(C)ccc3Sc3ccc(O)cc3)ncnc2n1	MTT	31.1 µM
CCOc1nc(N)nc2ccc(-c3ccc(C(=O)NC4CCCC4)cc3)nc12		>20 µM
CC(=O)N(C)[C@@H](C(=O)N1CCC[C@H]1C(=O)Nc1ccc(C#Cc2ccc(NC(=O)[C@@H]3CCCN3C(=O)[C@@H](c3ccccc3)N(C)C(C)=O)cc2)cc1)c1ccccc1	resazurin	>10 µM
Cc1ccc(Sc2ccc(O)cc2)c(Nc2ncnc3nc(C(C)C)ccc23)c1	MTT	22.9 µM
O=C(Nc1ccc(/C=C/c2ccc(NC(=O)[C@@H]3CCCN3C(=O)Cc3ccccc3)cc2)cc1)[C@@H]1CCCN1C(=O)Cc1ccccc1	resazurin	>10 µM
COCCOC(=O)N1CCN(c2nc(N)nc3ncc(-c4ccc(OC)c(OC)c4)nc23)CC1	ATP	10–20 µM
CCOc1nc(N)nc2ccc(-c3ccc(NS(=O)(=O)CC)cc3)nc12		>20 µM
CCCc1ccc2c(Nc3cc(C)ccc3Sc3ccc(NC(C)=O)cc3)ncnc2n1	MTT	>25 µM
N#Cc1c(Nc2cccc(Br)n2)s[nH]c1=O		>50 µM
Cc1ccc(Sc2ccccc2)c(Nc2cccc3nc(C)ccc23)c1	MTT	15.9 µM
CC(C)C(=O)Nc1ccc(-c2ccc3nc(N)nc(OCCF)c3n2)cc1		>20 µM
COc1ccc(-c2cnc3nc(N)nc(N4CCN(C(=O)Nc5ccc(F)c(Cl)c5)CC4)c3n2)cc1OC	ATP	<10 µM
O=C(Nc1ccc(C#Cc2ccc(NC(=O)[C@@H]3CCCN3C(=O)[C@@H](c3ccccc3)N3CCC(O)CC3)cc2)cc1)[C@@H]1CCCN1C(=O)[C@@H](c1ccccc1)N1CCC(O)CC1	resazurin	>10 µM
COc1ccc(-c2cnc3nc(N)nc(N4CCN(C(=O)N5CCCC5)CC4)c3n2)cc1OC	ATP	10–20 µM
COCCCNc1s[nH]c(=O)c1C#N		>50 µM
CCOc1nc(N)nc2ncc(-c3ccc(F)cc3)nc12	ATP	>20 µM
N#Cc1c(Nc2cc(Cl)c(Cl)c(Cl)c2)s[nH]c1=O		<50 µM
Cc1ccc(Sc2ccccc2)c(Nc2ncnc3nc(C4CC4)ccc23)c1	MTT	9.9 µM

A second listing of 2 rows from above:

structure | method | value
CC(C)C(=O)N[C@@H](C(=O)N1CCC[C@H]1C(=O)Nc1ccc(C#Cc2ccc(NC(=O)[C@@H]3CCCN3C(=O)[C@H](NC(=O)C(C)C)c3ccccc3)cc2)cc1)c1ccccc1 | resazurin | >10 µM
CCCc1ccc2c(Nc3cc(C)ccc3Sc3ccc(NC(C)=O)cc3)ncnc2n1 | MTT | >25 µM